# According to PMC7363885, “Fluorescent artificial receptor-based membrane assay (FARMA) for spatiotemporally resolved monitoring of biomembrane permeability” (Communications Biology, 2020):
# System: FAR-1
# Assay: Fluorescence titration, FAR•analyte complex formation in homogeneous solution
# Type: binding
# Details: 10 mM HEPES buffer (pH 7)
# Description: Fluorescence titrations were carried out in aqueous HEPES buffer (10 mM, pH 7, 22 °C) unless stated otherwise. To a solution of the FAR (typically at 10–30 μM) was stepwise added a solution of the analyte (typically up to 2 mM) and the fluorescence spectra were recorded. The normalized emissions at 450 nm (FAR-1) or at 370 nm (FAR-2) were fitted with an equation for a 1 : 1 binding by a least-square fit. The resulting affinity constants are reported in Supplementary Table 1. Representative titration plots are shown in Supplementary Fig. 1. Note that the high CB8-dye binding affinities correspond to a near quantitative degree of host-dye complexation, i.e., quantitative formation of the FAR, such that the subsequent binding of the analyte can be treated independently.
row,Compound,QE (quenching efficiency)
1,"Oc1ccccc1O [1,2-dihydroxybenzene]",> 0.9
2,"Oc1ccc(O)cc1 [1,4-dihydroxybenzene]",> 0.9
3,CCOc1ccc(O)cc1 [4-ethoxyphenol],> 0.9
4,O=C(O)C(=O)Cc1ccc(O)cc1 [4-hydroxyphenylpyruvic acid],> 0.9
5,"CCc1ccc(O)cc1 [4Et-phenol, 4-ethylphenol]",0.6
6,"N[C@@H](Cc1c[nH]c2ccc(O)cc12)C(=O)O [5HO-Trp, 5-hydroxy tryptophan]",> 0.9
7,O=C1CCC(=O)N1c1ccccc1 [N-phenylsuccinimide],> 0.9
8,CC(=O)NC(Cc1c[nH]c2ccccc12)C(=O)O (stereo not shown) [NAc-Trp],> 0.9
9,"N[C@@H](Cc1ccccc1)C(=O)O [Phe, phenylalanine]",0.5
10,"CNC(=C[N+](=O)[O-])NCCSCc1ccc(CN(C)C)o1 [Ranitidine, ranitidine, reference compound]",0.2
11,"N[C@@H](Cc1c[nH]c2ccccc12)C(=O)O [Trp, tryptophan]",> 0.9
12,"NC(=O)C(N)Cc1c[nH]c2ccccc12 (stereo not shown) [TrpNH2, tryptophanamide]",> 0.9
13,"COC(=O)[C@@H](N)Cc1c[nH]c2ccccc12 [TrpOMe, tryptophan methyl ester]",> 0.9
14,c1ccc2[nH]cnc2c1 [benzimidazole],0.8
15,NCCc1ccc(O)c(O)c1 [dopamine],> 0.9
16,c1ccc2ccccc2c1 [naphthalene],> 0.9
17,"CC(=O)Nc1ccc(O)cc1 [paracetamol, reference compound]",> 0.9
18,OC[C@H]1O[C@@H](Oc2ccccc2)[C@H](O)[C@@H](O)[C@H]1O [phenyl-β-D-galactopyranoside],> 0.9
19,c1ccc2ncccc2c1 [quinoline],0.6
